In the supplement of paper PMC9931576:
Human monoclonal antibodies against the spike receptor-binding domain (heavy:light variable regions). IC50 against pseudoviruses bearing the spike of naturally observed variants; lower = stronger; >10 µg/ml means not reached at the top dose. No active / inactive call. The stated detection limit is 0.0005 µg/ml; values near or below 0.001 µg/ml lie at the floor of the assay.

B1: BD55-5484 (protein)
chain 1: QVQLAQSGSELRKPGASVKVSCDTSGHSFTSNAIHWVRQVPGQGLEWMGWINTDTGTPTYAQGFTGRFVFSLDTSARTAYLQISSLKADDTAVYYCARERDYSDYFFDYWGQGTLVTVSS
chain 2: EVVMTQSPASLSVSPGERATLSCRARASLGISTDLAWYQQRPGQAPRLLIYGASTRATGIPARFSGSGSGTEFTLTISSLQSEDSAVYFCQQYANWPLTFGGGTKVEIE
B2: BD55-5537 (protein)
chain 1: QVQLVESGGGVVQPGRSLRLSCAASGFSFSNSGMHWVRQAPGKGLEWVAVISFDGSNQFYADPVKGRFTISRDNSKNTLYLQMNSLRVEDTAVYYCATPIREYSGYDVFDYYDGLDVWGQGTTLTVSS
chain 2: QSVLTQPPSASGTPGQRVTISCSGSSSNIGRDYVYWYQQFPGTAPKLLIHRNDQRPSGVPDRFSGSKSGTSASLAISWLRPEDEADYYCAAWDASLSAWVFGGGTKLTVL
B3: BD-504 (protein)
chain 1: EVQLVESGGGLVQPGGSLRLSCAASGITVRSNYMSWVRQAPGKGLEWVSVIYSGGSTFYADSVKGRFTISRDNSKNTLYLQMNSLRAEDTAVYYCARDLISRGMDVWGQGTTVTVSS
chain 2: DIQLTQSPSSLSASVGDRVTITCRASQGISSYLAWYQQKPGKAPKLLIYAASTLQSGVPSRFSGSGSGTDFTLTISSLQPEDFATYYCQQLNGYPHSAFGPGTKVDIK
B4: BD55-5512 (protein)
chain 1: QVQLVESGGGVVQPGRSLRLSCAASGFIFSSYVMHWVRQPPGKGLEWVAVISYDGRNKYYADSVKGRFTISRDNSKDTLYLQMNSLRPEDTAVYYCARDMGGLKDSGDFELDYWGQGTLVTVSS
chain 2: QSVLTQPPSASGTPGQRVTISCSGSSSNIGNNYVYWYQQLPGTAPKLLIYRGNQRPSGVPDRFSGSKSGTSASLAISGLRSEDEAEYYCAAWDDSLSGQGVFGGGTKLTVL
B5: BD55-5514 (protein)
chain 1: QVQLVQSGAEVKKPGSSVKVSCKASGGTFRSHVISWVRQAPGQGLEWMGGFIPLFGTTIYAQAFQGRVMISADESTSTAYMELSSLRSEDTAVYFCARLFPNGDPNSPEDGFDIWGQGTLVTVSA
chain 2: DIQMTQSPSSLSASVGDRVTITCQASQDIGNYLNWYQQKPGKAPKLLIYDASHLETGVPSRFSGSGSGTDFTFTISSLQPEDIATYYCQRYDDLPSYTFGQGTKVEIK
B6: BD55-5486 (protein)
chain 1: EVQLVETGGGLVQPGGSLRLSCAASDFVVGGNDMSWVRQAPGKGLEWVSGIYSGDTTFYADSVKGRFTISRDRTKNTLYLEMNSLRPEDTAIYYCASQVAGTFDYWGRGAQVTVSS
chain 2: DIQMTQSPSSLSASVGDRVTITCRASQGISNSVAWYQQTPGKAPKLLLYAASRLASGVPSRFSGSGSGTDFTLTISSLQPEDFATYYCQQYYGTPLFGQGTKV
B7: BD55-1066 (protein)
chain 1: EVQLVESGGGLVQPGGSLRLSCSASGFTFNKYPMYWVRQDPGKGLAYVSGISSYGDIADYADSVKGRFTISRDNSKNTLYLQMSSLRAEDTAVYYCVKDSGLNSMVVVMEIWGQGTLVTVSS
chain 2: DIRMTQSPSSLSASVGDRLTITCRASQTISQYLNWFQQKPGKAPRLLIFGASSLQNGVPSRFSGSGSGTDFTLTISSLQPEDFATYYCQQSYTNPPTFGGGTKVEIK
B8: BD55-5551 (protein)
chain 1: EVQLVESGGGLVKPGRSLRLSCSASGFNFGDYAMSWLRQAPGKGLEWLGFIRSKPSGGTTEYAASVDGRFAMSRDDSKSLAYLQMNSLKTEDTAVYYCTRAHYYYGSRGGHLYFDYWGQGTLVTVSS
chain 2: DIQMTQSPSSLSASVGDRVTITCQASQDITNYLSWYQQIPGKAPKLLIYDASNLETGVPSRFSGSGSGTDFTFTISSLQPEDVATYFCQQYDNLPVTFGQGTKLEIK
B9: BD55-5524 (protein)
chain 1: QVQLVQSGSELKKPGASVKVSCKASGYSFSTHAMNWVRQAPGQGLEWMGWIDTNTGNPTYAPGFAGRFVFSLDTSLHSAYLEISGLQADDTAVYYCAREGVAAQYYYYVMDVWGQGTTVTVSS
chain 2: DIQLTQSPSFLSASVGDRVTITCRASQGIGDYLAWYQQKPGKAPQLLIYAASTLQSGVPSRFSGSESGTEFTLTISSLQPEDFAIYYCQQLNTYPVAFGQGTRVEIK
B10: BD55-5519 (protein)
chain 1: EVQLLESGGGLVQPGGSLRLSCAASGFTLRSYAMNWVRQAPGKGLEWVSGLGAGGDIRTYSDSVKGRFTISRDDAKNTLFLQMNSLRAEDTAVYFCAKDLGGNVWYDVFEIWGRGTMVTVSS
chain 2: DIQLTQSPSSLSASVGDRVTITCRASQSISNYLNWYQQKVGKAPKLLIYAASSLQSGVPSRFSGSGSGTDFTLTISSLQPEDFATYYCQQSYNTPALTFGGGTTVEI
B11: BD55-5516 (protein)
chain 1: QVRLVQSGAEVKKPGSSVKVSCEASGGTLSNHVINWVRQAPGQGFEYMGGIVPVFGPPNYAQKFQGRVTITADTSTNTVYLELNSLRSDDTAVYFCARDAASPTYSGYDWLSPGWFDPWGQGTLVTVSS
chain 2: DIVMTQSPDSLAVSLGERATINCKSSQSVLYSSNNKNHLAWYQQKPGLPPRLLIYWASTRESGVPDRFGGSGSGTDFTLTISSLQAEDAAVYYCQQYYSPPLTFGGGTKVEIK
B12: BD55-5549 (protein)
chain 1: QLQLQESGPGLVKPSETLSLTCTVSGASITSSDSYWGWIRQPPGKGLEWIGSIYYTGSAYKSPPLKSRVTMSVDTSKNQFSLKVTSLTAADTAVYYCARGRGSPPHYYFYFGLDVWGQGTTVSVS
chain 2: SYELTQPPSVSVSPGQTATITCSGTALPNHYAYWYQQKPGQAPVLVIYTDNERPSGIPERFSGSTSGTTVTLTISGVQAEDEADYYCQSADSNANVVFGGGTKLTVL

How the values were obtained:
Test in all cases: pseudovirus neutralization IC50; higher = weaker neutralization
[1] = target: SARS-CoV-2 Omicron BA.1 spike pseudovirus
Description: (§1)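 Single-round VSV luciferase pseudovirus mixed with antibody dilutions for 1 h and put on Huh-7 cells for about a day; IC50 from the dose curve.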

[2] = target: SARS-CoV-2 Omicron BA.2 spike pseudovirus
Description: as §1

[3] = target: SARS-CoV-2 Omicron BA.2.75 spike pseudovirus
Description: as §1

[4] = target: SARS-CoV-2 Omicron BA.5 spike pseudovirus
Description: as §1

[5] = target: SARS-CoV-2 Omicron BQ.1.1 spike pseudovirus
Description: as §1

[6] = target: SARS-CoV-2 Omicron XBB spike pseudovirus
Description: as §1

[7] = target: SARS-CoV-2 early D614G spike pseudovirus
Description: as §1

Binder	pseudovirus neutralization IC50 [1]	pseudovirus neutralization IC50 [2]	pseudovirus neutralization IC50 [3]	pseudovirus neutralization IC50 [4]	pseudovirus neutralization IC50 [5]	pseudovirus neutralization IC50 [6]	pseudovirus neutralization IC50 [7]
B1	0.00319 µg/mL	0.011 µg/mL	0.145 µg/mL	0.0132 µg/mL	> 10 µg/mL	1.09 µg/mL	0.0014 µg/mL
B2	> 10 µg/mL	> 10 µg/mL	> 10 µg/mL	> 10 µg/mL	> 10 µg/mL	> 10 µg/mL	0.088 µg/mL
B3	> 10 µg/mL	> 10 µg/mL	> 10 µg/mL	> 10 µg/mL	> 10 µg/mL	> 10 µg/mL	0.033 µg/mL
B4	> 10 µg/mL	> 10 µg/mL	> 10 µg/mL	> 10 µg/mL	> 10 µg/mL	> 10 µg/mL	0.0316 µg/mL
B5	0.00169 µg/mL	0.00722 µg/mL	0.00434 µg/mL	0.00504 µg/mL	0.00478 µg/mL	0.00598 µg/mL	0.0107 µg/mL
B6	> 10 µg/mL	> 10 µg/mL	> 10 µg/mL	> 10 µg/mL	> 10 µg/mL	> 10 µg/mL	0.381 µg/mL
B7	> 10 µg/mL	> 10 µg/mL	> 10 µg/mL	> 10 µg/mL	> 10 µg/mL	> 10 µg/mL	> 10 µg/mL
B8	> 10 µg/mL	> 10 µg/mL	> 10 µg/mL	> 10 µg/mL	> 10 µg/mL	> 10 µg/mL	> 10 µg/mL
B9	> 10 µg/mL	> 10 µg/mL	> 10 µg/mL	> 10 µg/mL	> 10 µg/mL	> 10 µg/mL	> 10 µg/mL
B10	> 10 µg/mL	> 10 µg/mL	> 10 µg/mL	> 10 µg/mL	> 10 µg/mL	> 10 µg/mL	> 10 µg/mL
B11	0.367 µg/mL	> 10 µg/mL	> 10 µg/mL	> 10 µg/mL	> 10 µg/mL	> 10 µg/mL	0.0557 µg/mL
B12	0.0265 µg/mL	0.0576 µg/mL	0.033 µg/mL	0.0363 µg/mL	> 10 µg/mL	> 10 µg/mL	0.0011 µg/mL
